US8975288B2 (priority 2013, dated 2015)
Values after ≈ are worked out from the molar mass of the structure shown.

What was measured:
S. flexneri TolC mutant = assay: MIC study, S. flexneri TolC mutant; conditions: Table 5
S. aureus = assay: F2 resistance assay, S. aureus; conditions: pre-treatment with 40 μM F2

SMILES	MIC S. flexneri TolC (S. flexneri TolC mutant) [µM]	Induction of resistance to F2 in S. aureus (S. aureus)
CCCn1nnnc1NC(=O)c1cccc(Cl)c1 [Compound F2, reference compound]	3.12 (≈ 0.829 µg/mL)	induces resistance
CN(C)c1cccc2c(S(=O)(=O)NCCn3nnnc3NC(=O)c3cccc(Cl)c3)cccc12 [Dansyl-F2, 3-chloro-N-(1-(2-(5-(dimethylamino)naphthalene-1-sulfonamido)ethyl)-1H-tetrazol-5-yl)benzamide]	6.25 (≈ 3.12 µg/mL)	
